Anti-infective test results gathered from many reports (values: NIAID ChemDB through PubChem).

All rows: tests in culture; species: HIV-1; read-out: EC50

An empty or dashed field is not shown. Rows are shuffled and stem from different studies. ECn is the concentration giving n% inhibition of infection, replication or growth.

structure,strain or isolate,changes,read by,cell line,result
C[C@@H]1O[C@](C#CC2CC2)(C(F)(F)F)c2cc(Cl)ccc2NC1=O,RF,,,MT-2,<0.0022 µM
[N-]=[N+]=NCCCCCCCCCCCC(=O)Nc1ccn([C@@H]2CS[C@H](COC(=O)CCCCCCCCCCCN=[N+]=[N-])O2)c(=O)n1,IIIB,,,SupT1,>100 µg/mL
CC(C)C1=C2[C@H]3CC[C@@H]4[C@@]5(C)CC[C@H](OC(=O)[C@H]6C[C@@H](C(=O)O)C6(C)C)C(C)(C)[C@@H]5CC[C@@]4(C)[C@]3(C)CC[C@@]2([C@@H](O)CNC(=O)C2(NC(=O)c3ccc(Cl)cc3)CCC2)CC1=O,92HT599,,p24 / ELISA,MT-2,<1 µM
C=C(C)[C@@H]1CC[C@]2(C(=O)OCC(=O)c3ccccc3)CC[C@]3(C)[C@H](CC[C@@H]4[C@@]5(C)CC[C@H](NC(=O)CC(C)(C)CC(=O)O)C(C)(C)[C@@H]5CC[C@]43C)[C@@H]12,IIIB,,p24 / ELISA,H9,4.77 µM
CCCCCCCCCCCCCC(=O)OC[C@H]1O[C@@H](n2cc(C)c(=O)[nH]c2=O)C[C@@H]1N=[N+]=[N-],IIIB,,,SupT1,>100 µg/mL
CN(C)c1ccc(Nc2c3ccc(NC(=O)CCN4CCCC4)cc3nc3cc(NC(=O)CCN4CCCC4)ccc23)cc1,IIIB,,p24 / ELISA / antigen,MT-4,2.9 µM
Nc1nc2c(ncn2COCCO/N=C/c2ccccc2)c(=O)[nH]1,IIIB,,,C8166,>50 µM
CC[C@@H]1O[C@](/C=C/C2CC2)(C(F)(F)F)c2cc(F)ccc2NC1=O,RF,,,MT-2,<0.0025 µM
Nc1ccn([C@H]2CC[C@@H](CO)O2)c(=O)n1,,V106A,MTT,MT-4,0.57 µM
CSC1=NS(=O)(=O)N([C@@H]2O[C@H](COC(C)=O)[C@@H](OC(C)=O)[C@H](OC(C)=O)[C@H]2OC(C)=O)C(=O)N1,IIIB,,syncytia,CEM + CEM-SS,>200 µg/mL
CCN(CC)CCNc1nc(NCCCNC(=O)c2ccc(C(=O)NCCCNc3nc4c(c(NCCN(CC)CC)n3)CC=CC4)cc2)nc2c1CC=CC2,IIIB,,syncytia / ELISA,H9,0.125 µM
CC[C@@H]1O[C@](/C=C/C2CC2)(C(F)(F)F)c2cc(Cl)ccc2NC1=O,,RT-K103N,,,<0.013 µM
CC(C)C1=C2[C@H]3CC[C@@H]4[C@@]5(C)CC[C@H](OC(=O)[C@H]6C[C@@H](C(=O)O)C6(C)C)C(C)(C)[C@@H]5CC[C@@]4(C)[C@]3(C)CC[C@@]2(CC(=O)NCC(CCCCN)NC(=O)c2ccc(Cl)cc2)CC1=O,92HT599,,p24 / ELISA,MT-2,<1 µM
C[C@@H]1O[C@](/C=C/C2CC2)(C(F)(F)F)c2cc(Cl)ccc2NC1=O,,RT-K103N,,,<0.035 µM
Cc1nc(C)c(C(=O)NC(C)(C)CNCC[C@@]23CC[C@]4(C)[C@H](CC[C@@H]5[C@@]6(C)CC[C@H](OC(=O)[C@H]7C[C@@H](C(=O)O)C7(C)C)C(C)(C)[C@@H]6CC[C@]54C)C2=C(C(C)C)C(=O)C3)s1,92HT599,,p24 / ELISA,MT-2,<1 µM
C=C(C)[C@@H]1CC[C@]2(C(=O)O)CC[C@]3(C)[C@H](CC[C@@H]4[C@@]5(C)CC[C@H](NC(=O)COCC(=O)O)C(C)(C)[C@@H]5CC[C@]43C)[C@@H]12,IIIB,,p24 / ELISA,H9,>7.9 µM
CSC1=NS(=O)(=O)N([C@@H]2O[C@H](COC(=O)c3ccccc3)[C@@H](OC(=O)c3ccccc3)[C@H]2OC(=O)c2ccccc2)C(=O)N1,IIIB,,syncytia,CEM + CEM-SS,>40 µg/mL
C=C(C)[C@@H]1CC[C@]2(C(=O)O)CC[C@]3(C)[C@H](CC[C@@H]4[C@@]5(C)CC[C@@H](NC(=O)COCC(=O)O)C(C)(C)[C@@H]5CC[C@]43C)[C@@H]12,IIIB,,p24 / ELISA,H9,0.24 µM
CCc1c(Cc2cc(C)cc(C)c2)nc(SC)[nH]c1=O,,,MTT,MT-4,2 µM
CC/C=N/OCCOCn1cnc2c(=O)[nH]c(N)nc21,IIIB,,,C8166,>50 µM
CC(C)C1=C2[C@H]3CC[C@@H]4[C@@]5(C)CC[C@H](OC(=O)[C@H]6C[C@@H](C(=O)O)C6(C)C)C(C)(C)[C@@H]5CC[C@@]4(C)[C@]3(C)CC[C@@]2(CC(=O)NC(CCCCN)CNC(=O)c2ccc(Cl)cc2)CC1=O,92HT599,,p24 / ELISA,MT-2,<1 µM
CCN(CC)CCNc1ccnc(NCCCNC(=O)c2cccc(C(=O)NCCCNc3nccc(NCCN(CC)CC)n3)c2)n1,IIIB,,syncytia / ELISA,H9,0.3 µM
C=C(C)[C@@H]1CC[C@]2(C(=O)O)CC[C@]3(C)[C@H](CC[C@@H]4[C@@]5(C)CC[C@H](OC(=O)CC(C)(C)C(=O)O)C(C)(C)[C@@H]5CC[C@]43C)[C@@H]12,IIIB,,p24 / ELISA,H9,<0.00035 µM
Nc1nc2c(ncn2COCCON=C2CCCC2)c(=O)[nH]1,IIIB,,,C8166,>50 µM
CC1(C)CC[C@]2(C(=O)O)CC[C@]3(C)C(=CC[C@@H]4[C@@]5(C)CC[C@H](OC(=O)CC(C)(C)C(=O)O)C(C)(C)[C@@H]5CC[C@]43C)[C@@H]2C1,IIIB,,p24 / ELISA,H9,0.00086 µM
O=C(NCCCNc1ncccn1)c1cccc(C(=O)NCCCNc2ncccn2)c1,IIIB,,syncytia / ELISA,H9,>50 µM
O=C1Nc2ccc(Cl)cc2[C@@](C#CC2CC2)(C(F)(F)F)N1,RF,,,MT-2,<0.002 µM
Cc1nnc(-c2ccc(C(=O)NCC[C@@]34CC[C@]5(C)[C@H](CC[C@@H]6[C@@]7(C)CC[C@H](OC(=O)[C@H]8C[C@@H](C(=O)O)C8(C)C)C(C)(C)[C@@H]7CC[C@]65C)C3=C(C(C)C)C(=O)C4)cc2)o1,92HT599,,p24 / ELISA,MT-2,<1 µM
CCN(CC)CCNc1ccnc(NCCCNC(=O)CC(=O)NCCNc2nccc(NCCN(CC)CC)n2)n1,IIIB,,syncytia / ELISA,H9,2 µM
CC(C)C1=C2[C@H]3CC[C@@H]4[C@@]5(C)CC[C@H](OC(=O)[C@H]6C[C@@H](C(=O)O)C6(C)C)C(C)(C)[C@@H]5CC[C@@]4(C)[C@]3(C)CC[C@@]2([C@@H](O)CNCc2ccc(Cl)cc2OC2CCNCC2)CC1=O,92HT599,,p24 / ELISA,MT-2,<1 µM
CCN(CC)CCNc1nc(NCCCCNC(=O)CCCCC(=O)NCCCCNc2nc3c(c(NCCN(CC)CC)n2)CC=CC3)nc2c1CC=CC2,IIIB,,syncytia / ELISA,H9,0.125 µM
O=C1Nc2ccc(Cl)cc2[C@@](C#CC2CC2)(C(F)(F)F)O[C@H]1CC(F)(F)F,RF,,,MT-2,<0.0168 µM